Measurements reported in PubChem BioAssay AID1259414 (Drosophila RNAi Screening Center, 2018).
In all, the deposit lists about 24,000 reagents; this is an unselected part of those with a known target gene and a result. Of all reagents, about 1,210 (5%) got an active call. 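Inactive calls also include excluded dsRNAs with several or no targets, genes unexpressed in JW18, and well A1, regardless of score.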 A number with no mark means an inactive call. The numbers tell different reagents against one gene apart. A plus sign joins genes that one reagent is predicted to hit.

- Screen: 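Host factors increasing or decreasing Wolbachia levels in cultured fly cells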 (primary screen)
- Cell system: Drosophila JW18 cells infected with Wolbachia
- Knock-down reagent: long dsRNA against Drosophila genes, 0.25 µg dsRNA per well of a 384-well plate
- Duration: 5 days
- Conditions: cells persistently infected with Wolbachia before knock-down; no added drug
- Measurement: 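Automated imaging of bacterial rRNA staining divided by host cell count, reported as plate-normalised robust z-score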
- Scale: Wolbachia per cell robust z: higher = more Wolbachia per host cell than the plate typical
- Hit rule: 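Active if absolute robust z reaches 1.5 in two or more of three replicates, leaving out multi- or no-target dsRNAs, genes unexpressed in JW18 and A1 wells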

CG6659
- Wolbachia per cell robust z, rep 1: -0.242
- Wolbachia per cell robust z, rep 2: -0.541
- Wolbachia per cell robust z, rep 3: -0.367

CG8135 + BBIP1 #1
- Wolbachia per cell robust z, rep 1: 1.57
- Wolbachia per cell robust z, rep 2: 0.886
- Wolbachia per cell robust z, rep 3: 0.0178

CG8135 + BBIP1 #2
- Wolbachia per cell robust z, rep 1: 1.65
- Wolbachia per cell robust z, rep 2: 1.65
- Wolbachia per cell robust z, rep 3: -1.08

Fbl6 #1
- Wolbachia per cell robust z, rep 1: 0.282
- Wolbachia per cell robust z, rep 2: -0.31
- Wolbachia per cell robust z, rep 3: 0.497

Fbl6 #2
- Wolbachia per cell robust z, rep 1: -1
- Wolbachia per cell robust z, rep 2: 0.805
- Wolbachia per cell robust z, rep 3: -10.8

CG14759
- Wolbachia per cell robust z, rep 1: -2.81
- Wolbachia per cell robust z, rep 2: -3.85
- Wolbachia per cell robust z, rep 3: -0.133

CG14252
- Wolbachia per cell robust z, rep 1: 0.573
- Wolbachia per cell robust z, rep 2: 0.792
- Wolbachia per cell robust z, rep 3: 1.62

Arl4
- Wolbachia per cell robust z, rep 1: -2.34
- Wolbachia per cell robust z, rep 2: 0.207
- Wolbachia per cell robust z, rep 3: -0.118

BomBc3 #1
- Wolbachia per cell robust z, rep 1: -0.242
- Wolbachia per cell robust z, rep 2: -1.05
- Wolbachia per cell robust z, rep 3: -0.862

BomBc3 #2
- Wolbachia per cell robust z, rep 1: -1.03
- Wolbachia per cell robust z, rep 2: -0.246
- Wolbachia per cell robust z, rep 3: -0.211

Just “Wolbachia per cell robust z, rep 2” (2 entries from above):
CG8135 + BBIP1 #2: 1.65
Fbl6 #1: -0.31

The list goes on.
CG2854
- Wolbachia per cell robust z, rep 1: -1.88
- Wolbachia per cell robust z, rep 2: -0.826
- Wolbachia per cell robust z, rep 3: -0.223

CG42246
- Wolbachia per cell robust z, rep 1: -0.186
- Wolbachia per cell robust z, rep 2: -2.13
- Wolbachia per cell robust z, rep 3: -0.528

Top3alpha
- Wolbachia per cell robust z, rep 1: 0.797
- Wolbachia per cell robust z, rep 2: 1.36
- Wolbachia per cell robust z, rep 3: 1.17

t-Grip128 #1
- Wolbachia per cell robust z, rep 1: 0.788
- Wolbachia per cell robust z, rep 2: -0.919
- Wolbachia per cell robust z, rep 3: 0.0162

t-Grip128 #2
- Wolbachia per cell robust z, rep 1: 0.0142
- Wolbachia per cell robust z, rep 2: -0.334
- Wolbachia per cell robust z, rep 3: -1.03

t-Grip128 #3
- Wolbachia per cell robust z, rep 1: -0.273
- Wolbachia per cell robust z, rep 2: -0.0107
- Wolbachia per cell robust z, rep 3: -0.281

CR6900
- Wolbachia per cell robust z, rep 1: -0.775
- Wolbachia per cell robust z, rep 2: -0.399
- Wolbachia per cell robust z, rep 3: 0.187

Ilp5
- Wolbachia per cell robust z, rep 1: -1.24
- Wolbachia per cell robust z, rep 2: -3.36
- Wolbachia per cell robust z, rep 3: -0.559

inc #1
- Wolbachia per cell robust z, rep 1: 0.322
- Wolbachia per cell robust z, rep 2: -1.38
- Wolbachia per cell robust z, rep 3: 0.343

inc #2
- Wolbachia per cell robust z, rep 1: 0.87
- Wolbachia per cell robust z, rep 2: -1.68
- Wolbachia per cell robust z, rep 3: -0.0719

inc #3
- Wolbachia per cell robust z, rep 1: -0.0352
- Wolbachia per cell robust z, rep 2: -0.535
- Wolbachia per cell robust z, rep 3: 1.49

Corp #1
- Wolbachia per cell robust z, rep 1: 2.1 (active)
- Wolbachia per cell robust z, rep 2: 0.43
- Wolbachia per cell robust z, rep 3: 1.63

Corp #2
- Wolbachia per cell robust z, rep 1: 0.892
- Wolbachia per cell robust z, rep 2: -0.167
- Wolbachia per cell robust z, rep 3: 0.926

CG9458
- Wolbachia per cell robust z, rep 1: 1.21
- Wolbachia per cell robust z, rep 2: -2.87
- Wolbachia per cell robust z, rep 3: -0.393
